{"source": "paper PMC12664589", "about": "(Journal of Structural Biology: X, 2025)", "biological_target": "CpNce103p (Candida parapsilosis, UniProt G8B6R8)", "test": "Stopped-flow CO2 hydration assay, inhibition of CpNce103p carbonic anhydrase", "format": "biochemical", "details": "full-length CpNce103p (2.2 nM); 3.4 mM CO2; 20 mM HEPES-Na pH 7.5; 25 °C; 15 min preincubation"}
{"smiles": "O=[N+]([O-])c1ccccc1[N+](=O)[O-]", "values": [{"measurement": "Ki", "result": 153, "unit": "µM"}]}
